Record: PubChem BioAssay AID1259414 (Drosophila RNAi Screening Center, 2018)

Assay: 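Genome-wide screen for host control of endosymbiont load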 (primary screen)
Cell system: Drosophila JW18 cells infected with Wolbachia
Reagents: long dsRNA against Drosophila genes, 0.25 µg dsRNA per well of a 384-well plate
Timing: 5 days
Conditions: cells persistently infected with Wolbachia before knock-down; no added drug
Detection: 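Automated imaging of bacterial rRNA staining divided by host cell count, reported as plate-normalised robust z-score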
Reading the numbers: Wolbachia per cell robust z: higher = more Wolbachia per host cell than the plate typical
Hit rule: 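Active if absolute robust z reaches 1.5 in two or more of three replicates, leaving out multi- or no-target dsRNAs, genes unexpressed in JW18 and A1 wells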
In all, the deposit lists about 24,000 reagents; below is an unselected part of those that have a named target and a result. Of all reagents, about 1,210 (5%) got an active call. 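Inactive calls also include excluded dsRNAs with several or no targets, genes unexpressed in JW18, and well A1, regardless of score.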 Entries without a mark were called inactive.

The first 5 records, to show the layout:
gene | amplicon | Wolbachia per cell robust z, rep 1 | Wolbachia per cell robust z, rep 2 | Wolbachia per cell robust z, rep 3
CG13203 | DRSC06327 | -7.56 | -1.8 | 0.396
CG13203 | DRSC29202 | 1.96 | 2.12 | 1.59
Lk (Leucokinin) | DRSC10022 | 0.731 | -2.34 | -0.0411
Or67a (Odorant receptor 67a) | DRSC11240 | 0.146 | -0.136 | -0.247
CG14143 | DRSC10146 | 0.359 | 0.185 | 0.0051

The listing, from the start:
gene | amplicon | Wolbachia per cell robust z, rep 1 | Wolbachia per cell robust z, rep 2 | Wolbachia per cell robust z, rep 3
CG13203 | DRSC06327 | -7.56 | -1.8 | 0.396
CG13203 | DRSC29202 | 1.96 | 2.12 | 1.59
Lk (Leucokinin) | DRSC10022 | 0.731 | -2.34 | -0.0411
Or67a (Odorant receptor 67a) | DRSC11240 | 0.146 | -0.136 | -0.247
CG14143 | DRSC10146 | 0.359 | 0.185 | 0.0051
CG14143 | DRSC26503 | -0.757 | -0.351 | -0.821
grn (grain) | DRSC16961 | 0.0859 | -0.281 | 0.101
grn (grain) | DRSC25829 | -0.266 | -0.418 | -1.4
CG1907 | DRSC15399 | 1.03 | 0.202 | -5.75
trx (trithorax) | DRSC17089 | 4.53 (active) | -2.02 | -4.58
trx (trithorax) | DRSC38481 | 0.109 | -0.0564 | -1.84
Nazo | DRSC14343 | 0.53 | -0.329 | -0.146
etaTry (etaTrypsin) | DRSC07613 | -5.77 | 1.23 | 0.698
etaTry (etaTrypsin) | DRSC28998 | -7.26 | -1.12 | 0.292
CG8441 | DRSC07180 | -0.0626 | 0.255 | 0.29
Cpr31A (Cuticular protein 31A) | DRSC02779 | 1.61 | -0.116 | -0.214
Cpr31A (Cuticular protein 31A) | DRSC28742 | -0.267 | -0.647 | -0.191
trc (tricornered) | DRSC11406 | -0.105 | -0.00744 | 0.218
trc (tricornered) | DRSC29426 | -1.33 | 0.152 | -8.11
CG8531 | DRSC07209 | 0.489 | 0.0262 | 0.53
NaCP60E (Na channel protein 60E) | DRSC04307 | -1.49 | 0.0462 | -1.27
NaCP60E (Na channel protein 60E) | DRSC21351 | 0.616 | 0.993 | 0.745
NaCP60E (Na channel protein 60E) | DRSC26120 | 0.551 | -1.05 | -4.42
CG8089 | DRSC07074 | -3.58 (active) | 0.494 | -1.88
EndoU (Endoribonuclease U-specific) | DRSC15472 | 0.234 | -0.336 | -0.00582
CG12693 | DRSC17882 | -1.98 | 0.944 | 0.376
CG15357 | DRSC00387 | 0.364 | -0.138 | -0.132
Lis-1 (Lissencephaly-1) | DRSC07459 | 0.371 | 0.11 | 1.04
Lis-1 (Lissencephaly-1) | DRSC40803 | 1.09 | -0.117 | -0.646
CG15922 | DRSC15128 | 0.452 | -0.924 | -1.88
CG32032 | DRSC08961 | 1.06 | 0.958 | 1.09
epsilonCOP (Coat Protein (coatomer) epsilon) | DRSC02003 | 0.066 | -0.812 | 1.44
epsilonCOP (Coat Protein (coatomer) epsilon) | DRSC26466 | 0.605 | -1.15 | -0.327
Grl36b (Gustatory receptor-like 36b) | DRSC01627 | 1.38 | 0.385 | -0.421
VhaM9.7-c (Vacuolar H[+] ATPase M9.7 subunit c) | DRSC08204 | -0.0972 | 1.16 | 0.195
VhaM9.7-c (Vacuolar H[+] ATPase M9.7 subunit c) | DRSC30083 | 0.61 | -0.736 | 0.363
cathD (cathepsin D) | DRSC07588 | 0.685 | 0.13 | -0.0332
VhaPPA1-2 (Vacuolar H[+] ATPase PPA1 subunit 2) | DRSC16176 | 0.432 | -7.2 | -0.499
VhaPPA1-2 (Vacuolar H[+] ATPase PPA1 subunit 2) | DRSC25591 | 0.26 | -1 | -0.916
CG10300 | DRSC14225 | -0.244 | -2.34 | -7.35
CG8369 | DRSC16413 | 0.187 | -0.0183 | 0.348
Cht2 (Chitinase 2) | DRSC08650 | -0.2 | 1.06 | -1.73
Cht2 (Chitinase 2) | DRSC24801 | -1.29 | -0.297 | -0.55
CG32006 | DRSC21768 | -2.04 | -1.41 | -0.462
CG32006 | DRSC28120 | -0.221 | 0.499 | -0.0663
ND-20L (NADH dehydrogenase (ubiquinone) 20 kDa subunit-like) | DRSC15414 | -4.35 | -0.55 | -1.14
